Assay results taken from patent publication US9314479B2, “Methods and compositions for the disruption of biofilms” (National Jewish Health, priority 2007, dated 2016).

System: PA01 biofilms formed in the presence of neutrophils
Experiment: Crystal violet assay: 10 minute exposure of 24 or 48 hour neutrophil-induced PA01 biofilms to poly(amino acid) and/or DNase
Settings: 10 minutes; DNase 8.25 ug/ml, (Asp)260 5 μM

B1: DNase: Pulmozyme (DNase) (Genentech) at 1 mg/mL in saline (protein, UniProt P24855 23-282, looked up)
Deoxyribonuclease-1: LKIAAFNIQTFGETKMSNATLVSYIVQILSRYDIALVQEVRDSHLTAVGKLLDNLNQDAPDTYHYVVSEPLGRNSYKERYLFVYRPDQVSAVDSYYYDDGCEPCGNDTFNREPAIVRFFSRFTEVREFAIVPLHAAPGDAVAEIDALYDVYLDVQEKWGLEDVMLMGDFNAGCSYVRPSQWSSIRLWTSPTFQWLIPDSADTTATPTHCAYDRIVVAGMLLRGAVVPDSALPFNFQAAYGLSDQLAQAISDHYPVEVMLK
decrease in biofilm density, 48 hour biofilm, lower DNase: 16%
